Pooled drug test results. Numbers come from NIAID ChemDB, via PubChem.

Shared fields: growth or infection tests; agent: Varicella zoster virus; read by: cytopathic effect; measure: EC50

Neighbouring rows are from separate reports. ECn is the concentration giving n% inhibition of infection, replication or growth.

structure	strain	cell line	value
CCCCCCOc1ccc(-c2cc3cn([C@H]4C[C@H](O)[C@@H](CO)O4)c(=O)nc3o2)cc1	YS/R (TK-)	HEL	>50 µM
Nc1ncnc2c1ncn2[C@@H]1C=C(CO)[C@@H](O)[C@H]1O	07/1 YS/R (TK-)	VERO	40 µg/mL
Nc1ccn(C[C@@H](CO)OCP(=O)(O)O)c(=O)n1	Oka PFA-resistant/A	HEL	0.44 µM
CCCCOc1ccc(-c2cc3cn([C@H]4C[C@H](O)[C@@H](CO)O4)c(=O)nc3o2)cc1	OKA	HEL	<0.5 µM
CC1(C)[C@@H](CO)CC[C@@]1(C)Cn1nnc2c(N)ncnc21	OKA	HEL	>50 µg/mL
Nc1ncnc2c1ncn2CCCC(O)CF	OKA	HEL	>50 µg/mL
CC1(C)[C@@H](CO)CC[C@@]1(C)Cn1ccc(=O)[nH]c1=O	YS	HEL	>50 µg/mL
Nc1ncnc2c1ncn2C[C@@H](CO)OCP(=O)(O)O	Oka PFA-resistant/B	HEL	0.148 µM
Nc1ccn(C(CF)CCCO)c(=O)n1	07-01/TK-	HEL	>50 µg/mL
Nc1nc(N)c2ncn(CCOCP(=O)(O)O)c2n1	Oka acyclovir-resistant	HEL	3 µM
CC1(C)[C@@H](CO)CC[C@@]1(C)Cn1nnc2c(Cl)ncnc21	YS/R (TK-)	HEL	>50 µg/mL
Nc1ccn(CCCC(O)CF)c(=O)n1	07-01/TK-	HEL	>50 µg/mL
Nc1nc2c(ncn2CCC(CO)CO)c(=O)[nH]1	Oka PMEA-resistant	HEL	19.5 µM
Nc1nc2c(ncn2COCCO)c(=O)[nH]1	YS	HEL	0.2 µg/mL
CCOc1ccc(-c2cc3cn([C@H]4C[C@H](O)[C@@H](CO)O4)c(=O)nc3o2)cc1	YS/R (TK-)	HEL	>50 µM
O=C(O)P(=O)(O)O	Clinical isolate VZV-26	HEL	85.5 µM
O=c1nc2oc(-c3ccc(Br)cc3)cc2cn1[C@H]1C[C@H](O)[C@@H](CO)O1	OKA	HEL	0.1 µM
Nc1ncnc2c1ncn2C[C@@H](CO)OCP(=O)(O)O	YS	HEL	0.004 µg/mL
CC1(C)[C@@H](CO)CC[C@@]1(C)Cn1cnc2c(Cl)ncnc21	YS	HEL	>50 µg/mL

A second listing of 3 rows from above:

structure | strain | cell line | value
Nc1nc(N)c2ncn(CCOCP(=O)(O)O)c2n1 | Oka acyclovir-resistant | HEL | 3 µM
CC1(C)[C@@H](CO)CC[C@@]1(C)Cn1ccc(=O)[nH]c1=O | YS | HEL | >50 µg/mL
CCOc1ccc(-c2cc3cn([C@H]4C[C@H](O)[C@@H](CO)O4)c(=O)nc3o2)cc1 | YS/R (TK-) | HEL | >50 µM